Measured values from several laboratories, pooled; numbers as filed in NIAID ChemDB.

Shared fields: tests on isolated targets; organism: Human cytomegalovirus; protein: Polymerase; endpoint: IC50

Conditions beyond the fields shown may differ between rows.

smiles	value
O=C(NCc1ccc(Cl)cc1)c1c[nH]c2c(F)cc(CCCO)cc2c1=O	0.26 µM
Cn1cc(C(=O)NCc2ccc(Cl)cc2)c(=O)c2cc(CN3CCOCC3)ccc21	0.69 µM
COc1cc2ccccc2cc1C(=O)NCc1ccc(Cl)cc1	2.4 µM
O=C(/C=C/c1ccccc1Cl)Nc1nnc(NCCNc2ccccc2)s1	>25 µM
Nn1cc(C(=O)NCc2ccc(Cl)cc2)c(=O)c2cc(C#CCO)ccc21	1 µM
O=C(/C=C/c1ccccc1Cl)Nc1nnc(NC2CC2)s1	>25 µM
Cc1nc2[nH]cc(C(=O)NCc3ccc(Cl)cc3)c(=O)c2cc1Br	>20 µM
CN(CCS(=O)(=O)[O-])C(=O)CCCCCCC(=O)OCC#Cc1ccc2c(c1)c(=O)c(C(=O)NCc1ccc(Cl)cc1)cn2C1CC1	>20 µM
O=C(NCc1ccc(Cl)cc1)c1c[nH]c2c(F)cc(C#CCO)cc2c1=O	0.89 µM
CN(Cc1cc2c3c(c1)c(=O)c(C(=O)NCc1ccc(Cl)cc1)cn3CC(=O)N2C)C[C@@H](O)c1ccccc1	0.082 µM
O=C(NCc1ccc(Cl)cc1)c1c[nH]c2c(F)cc(-c3ccco3)cc2c1=O	>50 µM
O=C(NCc1ccc(Cl)cc1)c1cn2c3c(cc(CN4CCOCC4)cc3c1=O)CN(Cc1ccccc1)C2=O	>20 µM
O=C(NCc1ccc(Cl)cc1)c1n[nH]c2ccc(I)cc2c1=O	>100 µM
O=C(NCc1ccc(Cl)cc1)c1cn(N2CCCCC2)c2ccc(C#CCO)cc2c1=O	3.2 µM
Cc1ccc(C(O)CN(C)Cc2cc3c4c(c2)c(=O)c(C(=O)NCc2ccc(Cl)cc2)cn4CC(=O)N3C)o1	0.105 µM
O=C(NCc1ccc(Cl)cc1)c1cn(N2CCOCC2)c2ccc(CN3CCOCC3)cc2c1=O	0.3 µM
COC(=O)c1ccc2[nH]nc(C(=O)NCc3ccc(Cl)cc3)c(=O)c2c1	50 µM
COC[C@H]1CCCN1n1cc(C(=O)NCc2ccc(Cl)cc2)c(=O)c2cc(CN3CCOCC3)ccc21	4 µM
Cc1ccc(C(=O)Nc2nnc(NCCCCc3ccccc3)s2)cc1	>25 µM
O=C(NCc1ccccc1)c1cn(N2CCOCC2)c2ccc(CN3CCOCC3)cc2c1=O	>20 µM
O=C(NCc1ccc(Cl)cc1)c1c[nH]c2ccc(C#CCO)cc2c1=O	0.96 µM
O=C(/C=C/c1ccccc1)Nc1nnc(NCc2ccc(Cl)c(Cl)c2)s1	>25 µM
CN(Cc1cc2c3c(c1)c(=O)c(C(=O)NCc1ccc(Cl)cc1)cn3CC(=O)N2C)C[C@@H](O)c1ccco1	0.073 µM

ICn is the concentration giving n% inhibition.